Compound potency records, mixed from different reports. Data source: NIAID ChemDB in PubChem.

Common to all: toxicity to cultured cells; cell line: MT-4; endpoint: CC50

Rows are shuffled and stem from different studies. CCn is the concentration with n% toxicity to the cells. Blank or dashed fields: not listed here.

{"smiles": "COc1cccc2c1nc(-c1ccccc1F)n2Cc1c(C)cccc1C", "value": ">25 µg/mL"}
{"smiles": "CC(C)[C@H](NC(=O)c1ccccc1)C(=O)N/N=C/c1c(F)cccc1F", "read by": "MTT", "value": ">348 µM"}
{"smiles": "CSCC[C@H](C(=O)N1CCNCC1c1c[nH]c2ccccc12)N1CCCN(C(C)C)CC1", "read by": "MTT", "value": ">50 µM"}
{"smiles": "O=C(OC[C@H]1O[C@@H](O)[C@@H]2OC(=O)c3cc(O)c(O)c(O)c3-c3c(cc(O)c(O)c3O)C(=O)O[C@H]2[C@@H]1OC(=O)c1cc(O)c(O)c(O)c1Oc1cc2c(c(O)c1O)-c1c(cc(O)c(O)c1O)C(=O)O[C@@H]1[C@@H](OC2=O)[C@H](OC(=O)c2cc(O)c(O)c(O)c2)O[C@@H]2COC(=O)c3cc(O)c(O)c(O)c3-c3c(cc(O)c(O)c3O)C(=O)O[C@@H]12)c1cc(O)c(OC(=O)c2cc(O)c(O)c(O)c2)c(O)c1", "value": "33.7 µg/mL"}
{"smiles": "CC(C)[C@@H](NC(=O)c1ccccc1)C(=O)N/N=C/c1c(F)cccc1F", "read by": "MTT", "value": ">348 µM"}
{"smiles": "O=c1[nH]c(=S)ccn1[C@H]1C[C@H](F)[C@@H](CO)O1", "value": "130 µM"}
{"smiles": "Cc1cn([C@H]2C[C@H](N=[N+]=[N-])[C@@H](COP(=O)(O)C(=O)NCC[N+](C)(C)C)O2)c(=O)[nH]c1=O", "read by": "MTT", "value": ">2200 µM"}
{"smiles": "Nc1ccn([C@H]2CC[C@@H](CO)O2)c(=O)n1", "value": "48 µg/mL"}
{"smiles": "CCOCn1c(Cc2ccccc2)c(C(C)C)c(=O)[nH]c1=O", "read by": "MTT", "value": ">100 µM"}
{"smiles": "COc1cccc2c1nc(-c1ccccc1F)n2C(=O)OC(C)C", "value": "17.9 µg/mL"}
{"smiles": "O=c1c2ccccc2nc2scnn12", "read by": "MTT", "value": ">82.05 µg/mL"}
{"smiles": "COc1ccc(Cn2c(-c3ccccc3F)nc3c(OC)cccc32)cc1", "value": "14.8 µg/mL"}
{"smiles": "O=C1CSC(c2c(Cl)cccc2Cl)N1Cc1ccco1", "value": "44.8 µM"}
{"smiles": "O=CC(OC(=O)c1cc(Oc2cc3c(c(O)c2O)Oc2cc(cc(O)c2O)C(=O)OC2OC4COC(=O)c5cc(O)c(O)c(O)c5-c5c(cc(O)c(O)c5O)C(=O)OC4C(OC(=O)c4cc(O)c(O)c(O)c4)C2OC3=O)c(O)c(O)c1O)C(OC(=O)c1cc(O)c(O)c(O)c1)C1OC(=O)c2cc(O)c(O)c(O)c2-c2c(cc(O)c(O)c2O)C(=O)OCC1O", "value": "64.3 µg/mL"}
{"smiles": "COC(=O)Cc1cn([C@@H]2C=C[C@H](CO)O2)c(=O)[nH]c1=O", "read by": "MTT", "value": ">100 µM"}
{"smiles": "O=CC(OC(=O)c1cc(O)c(O)c(O)c1Oc1cc2c(c(O)c1O)-c1c(cc(O)c(O)c1O)C(=O)OC1C(COC2=O)OC(OC(=O)c2cc(O)c(O)c(O)c2)C(OC(=O)c2cc(O)c(O)c(O)c2)C1OC(=O)c1cc(O)c(O)c(O)c1)C(OC(=O)c1cc(O)c(O)c(O)c1)C1OC(=O)c2cc(c(O)c(O)c2O)-c2c(cc(O)c(O)c2O)C(=O)OCC1O", "value": "42 µg/mL"}
{"smiles": "Cc1cn([C@H]2C[C@H](N=[N+]=[N-])[C@@H](COP(=O)(O)CCN)O2)c(=O)[nH]c1=O", "read by": "MTT", "value": "2700 µM"}
{"smiles": "CSCC[C@H](C(=O)N1CCNC[C@H]1c1c[nH]c2ccccc12)N1CCCN(C(C)C)CC1", "read by": "MTT", "value": ">50 µM"}
{"smiles": "O=C(O[C@@H]1O[C@@H]2COC(=O)c3cc(O)c(O)c(O)c3-c3c(cc(O)c(O)c3O)C(=O)O[C@H]2[C@@H]2OC(=O)c3cc(O)c(O)c(O)c3-c3c(cc(O)c(O)c3O)C(=O)O[C@@H]12)c1cc(O)c(O)c(O)c1", "value": "20.9 µg/mL"}
{"smiles": "COc1cc(OC)c(C2SCC(=O)N2Cc2ccco2)c(OC)c1", "value": "6.88 µM"}
{"smiles": "COC(=O)[C@H](C)NP(=O)(OC[C@@H]1C=C[C@H](n2cc(CC(=O)NCCCCCCCCNC(=O)C(F)(F)F)c(=O)[nH]c2=O)O1)Oc1ccccc1", "read by": "MTT", "value": "1 µM"}
{"smiles": "Cc1cc(C)c(Nc2nc(NC3CCN(Cc4ccc(C#N)cc4)CC3)nc3nc[nH]c23)c(C)c1", "read by": "MTT", "value": "26.79 µM"}
{"smiles": "O=C(O[C@@H]1[C@H](c2c(O)cc(O)c3c2O[C@H](c2ccc(O)c(O)c2)[C@H](OC(=O)c2cc(O)c(O)c(O)c2)C3)c2c(O)cc(O)c([C@H]3c4c(O)cc(O)cc4O[C@H](c4ccc(O)c(O)c4)[C@@H]3OC(=O)c3cc(O)c(O)c(O)c3)c2O[C@@H]1c1ccc(O)c(O)c1)c1cc(O)c(O)c(O)c1", "value": "60.6 µg/mL"}
{"smiles": "Cc1ccc(S(=O)(=O)n2c(=O)[nH]c3ccc(Cl)cc32)cc1C", "read by": "MTS", "value": ">371 µM"}
{"smiles": "COc1cc(C2SCC(=O)N2Cc2ccco2)cc(OC)c1OC", "value": "358 µM"}
{"smiles": "CC(C)(C)OC(=O)N(Cc1ccccc1)CC(O)C(Sc1ccccc1)N(Cc1ccccc1)C(=O)OC(C)(C)C", "value": "50 µM"}
{"smiles": "Cc1cc(C#N)cc(C)c1Oc1nc(Nc2ccc(C#N)cc2)nc(N)c1Br", "read by": "MTT", "value": ">4.6 µM"}
{"smiles": "C[C@]1(CO)[C@@H](Cn2cnc3c(=O)[nH]c(N)nc32)C1(F)F", "value": ">100 µM"}
{"smiles": "O=c1ccn([C@H]2C[C@H](F)[C@@H](CO)O2)c(=O)[nH]1", "value": "75 µM"}
{"smiles": "CC(C)[C@H](NC(=O)c1cccnc1)C(=O)N(Cc1ccccc1)CC(O)C(Sc1ccccc1)N(Cc1ccccc1)C(=O)[C@@H](NC(=O)c1cccnc1)C(C)C", "value": "100 µM"}
{"smiles": "C[C@]1(CO)[C@H](Cn2cnc3c(=O)[nH]c(N)nc32)C1(F)F", "value": ">100 µM"}
{"smiles": "CCc1c(Cc2cccc(Cc3nc(N4CCCCC4)[nH]c(=O)c3CC)c2)nc(N2CCCCC2)[nH]c1=O", "read by": "MTT", "value": "75 µM"}
{"smiles": "O=CC(OC(=O)c1cc(O)c(O)c(O)c1Oc1cc(C(=O)O)cc(O)c1O)C(OC(=O)c1cc(O)c(O)c(O)c1)C1OC(=O)c2cc(O)c(O)c(O)c2-c2c(cc(O)c(O)c2O)C(=O)OCC1O", "value": "29.1 µg/mL"}
{"smiles": "Cc1cc(C)c(Nc2nc(NC3CCN(Cc4ccc(F)cc4)CC3)nc3nc[nH]c23)c(C)c1", "read by": "MTT", "value": "13.96 µM"}
{"smiles": "COC(=O)[C@H](C)NP(=O)(OC[C@H]1C=C[C@@H](n2cc(CC(=O)NCCCCCCCCCCCCNC(=O)C(F)(F)F)c(=O)[nH]c2=O)O1)Oc1ccccc1", "read by": "MTT", "value": ">10 µM"}
{"smiles": "CCc1c(Cc2cccc(Cc3nc(SC(C)C)[nH]c(=O)c3CC)c2)nc(SC(C)C)[nH]c1=O", "read by": "MTT", "value": "36 µM"}
{"smiles": "Cc1cc(C)c(Nc2nc(NC3CCN(Cc4ccc(Cl)c(Cl)c4)CC3)nc3nc[nH]c23)c(C)c1", "read by": "MTT", "value": "189 µM"}
{"smiles": "CCc1c(Cc2cccc(Cc3nc(SC)n(C)c(=O)c3CC)c2)nc(SC)nc1OC", "read by": "MTT", "value": "80 µM"}
{"smiles": "COc1ccc(Nc2nn3c(=O)c4ccccc4nc3s2)cc1", "read by": "MTT", "value": ">97.4 µg/mL"}
{"smiles": "O=C1OC2OC3COC(=O)c4cc(O)c(O)c(O)c4-c4c(cc(O)c(O)c4O)C(=O)OC3C(OC(=O)c3cc(O)c(O)c(O)c3)C2OC(=O)c2cc(O)c(O)c(O)c2Oc2cc(cc(O)c2O)C(=O)OC2OC3COC(=O)c4cc(O)c(O)c(O)c4-c4c(cc(O)c(O)c4O)C(=O)OC3C(OC(=O)c3cc(O)c(O)c(O)c3)C2OC(=O)c2cc(O)c(O)c(O)c2Oc2cc1cc(O)c2O", "value": "75.5 µg/mL"}
{"smiles": "COc1cccc2c1nc(-c1ccccc1F)n2Cc1cccc(C(F)(F)F)c1", "value": "15 µg/mL"}
{"smiles": "C=C(C)CC[C@H]1CN(c2ccn(N3CCOCC3)c2)C(=O)O1", "value": ">100 µM"}
{"smiles": "Cc1cc(C)c(Nc2nc(NC3CCN(Cc4ccc([N+](=O)[O-])cc4)CC3)nc3nc[nH]c23)c(C)c1", "read by": "MTT", "value": "21.8 µM"}
{"smiles": "COc1cccc2c1nc(-c1ccccc1F)n2CC#N", "value": "110 µg/mL"}
{"smiles": "CCOCn1c(Cc2cccc(Cc3c(CC)c(=O)[nH]c(=O)n3COCC)c2)c(CC)c(=O)[nH]c1=O", "read by": "MTT", "value": ">100 µM"}
{"smiles": "C=Cc1cn([C@H]2C[C@H](F)[C@@H](CO)O2)c(=O)[nH]c1=O", "value": "6 µM"}
{"smiles": "O=C(Cc1cn([C@H]2C=C[C@@H](CO)O2)c(=O)[nH]c1=O)NCCCCCCCCCCCCNC(=O)c1c2ccccc2nc2ccccc12", "read by": "MTT", "value": ">10 µM"}
{"smiles": "Cc1cn([C@H]2C[C@H](F)[C@@H](CO)O2)c(=O)[nH]c1=O", "value": "11 µM"}
{"smiles": "CC(C)[C@H](NC(=O)N(C)c1ccccc1)C(=O)NC(Sc1ccccc1)C(O)C(NC(=O)[C@@H](NC(=O)N(C)c1ccccc1)C(C)C)Sc1ccccc1", "value": "10 µM"}
{"smiles": "COC(=O)Cc1cn([C@H]2C=C[C@@H](CO)O2)c(=O)[nH]c1=O", "read by": "MTT", "value": "330 µM"}
{"smiles": "CCCCOC(=O)c1cc(O)c(O)c(O)c1", "value": "14.4 µg/mL"}
{"smiles": "Cc1cn([C@H]2C[C@H](N=[N+]=[N-])[C@@H](CO)O2)c(=O)[nH]c1=O", "read by": "MTT", "value": ">7.5 µM"}
{"smiles": "CCn1c(-c2ccccc2F)nc2c(OC)cccc21", "value": ">19.2 µg/mL"}
{"smiles": "COC(=O)[C@H](C)NP(=O)(OC[C@@H]1C=C[C@H](n2cc(CC(=O)NCCCCCCCCCCNC(=O)C(F)(F)F)c(=O)[nH]c2=O)O1)Oc1ccccc1", "read by": "MTT", "value": ">10 µM"}
{"smiles": "CCc1c(Cc2cccc(Cc3nc(SC)n(C)c(=O)c3CC)c2)nc(SC)n(C)c1=O", "read by": "MTT", "value": ">100 µM"}
{"smiles": "O=C1CSC(c2ccccc2Cl)N1Cc1ccco1", "value": "112 µM"}
{"smiles": "CC(C)[C@H](NC(=O)OC(C)(C)C)C(=O)NC(Sc1ccccc1)C(O)C(NC(=O)[C@@H](NC(=O)OC(C)(C)C)C(C)C)Sc1ccccc1", "value": "100 µM"}
{"smiles": "Cc1cc(C)c(Nc2nc(NC3CCN(Cc4ccccc4C#N)CC3)nc3nc[nH]c23)c(C)c1", "read by": "MTT", "value": "125 µM"}
{"smiles": "CC(C)[C@@H](NC(=O)c1ccccc1)C(=O)N/N=C/c1ccccc1F", "read by": "MTT", "value": ">366 µM"}
{"smiles": "Cc1cn([C@H]2C[C@H](N=[N+]=[N-])[C@@H](COP(=O)(O)C(N)=O)O2)c(=O)[nH]c1=O", "read by": "MTT", "value": "2700 µM"}

A second listing of 6 rows from above:

smiles	read by	value
C=C(C)CC[C@H]1CN(c2ccn(N3CCOCC3)c2)C(=O)O1		>100 µM
Cc1cn([C@H]2C[C@H](N=[N+]=[N-])[C@@H](COP(=O)(O)C(N)=O)O2)c(=O)[nH]c1=O	MTT	2700 µM
O=C(O[C@@H]1[C@H](c2c(O)cc(O)c3c2O[C@H](c2ccc(O)c(O)c2)[C@H](OC(=O)c2cc(O)c(O)c(O)c2)C3)c2c(O)cc(O)c([C@H]3c4c(O)cc(O)cc4O[C@H](c4ccc(O)c(O)c4)[C@@H]3OC(=O)c3cc(O)c(O)c(O)c3)c2O[C@@H]1c1ccc(O)c(O)c1)c1cc(O)c(O)c(O)c1		60.6 µg/mL
CC(C)[C@@H](NC(=O)c1ccccc1)C(=O)N/N=C/c1c(F)cccc1F	MTT	>348 µM
COC(=O)[C@H](C)NP(=O)(OC[C@@H]1C=C[C@H](n2cc(CC(=O)NCCCCCCCCCCNC(=O)C(F)(F)F)c(=O)[nH]c2=O)O1)Oc1ccccc1	MTT	>10 µM
COc1cccc2c1nc(-c1ccccc1F)n2C(=O)OC(C)C		17.9 µg/mL